Measured values from several laboratories, pooled; numbers as filed in NIAID ChemDB.

Shared fields: growth or infection tests; organism: Mycobacterium tuberculosis

ECn: concentration that inhibits the pathogen or its effect by n%.

smiles,strain,endpoint,tested at,read by,cell line,result
Cc1cccc(OC2C(=O)N(c3ccc(Cl)c(F)c3)C2c2ccc(OCC(=O)O)cc2)c1,H37Rv,MIC90,-,resazurin,-,>6.25 µg/mL
CCn1cc(C(=O)O)c(=O)c2cc(F)c(N3CCN(Cn4c(O)c(N=NC(=O)c5ccncc5)c5ccccc54)CC3)cc21,H37Rv,inhibition,12.5 µg/mL,BACTEC,-,100%
CCCCNC(=S)N=Nc1c(O)n(C)c2ccc(OC(F)(F)F)cc12,H37Rv,EC90,-,broth dilution / resazurin,-,>100 µg/mL
CCCc1c(C(=O)OCCCN(CC)CC)c(C(=O)OCCCN(CC)CC)c(CCC)n1-c1ccccc1,H37Rv,MIC bound,-,resazurin,-,>6.25 µg/mL
CO[C@H]1/C=C/O[C@@]2(C)Oc3c(C)c(O)c4c(O)c(cc(O)c4c3C2=O)NC(=O)/C(C)=C\C=C\[C@H](C)[C@H](O)[C@@H](C)[C@@H](O)[C@@H](C)[C@H](OC(C)=O)[C@@H]1C,BCG,MIC,-,-,-,0.02 µg/mL
COC(=O)C1=C(C)NC(Nc2cccc(SC(F)(F)F)c2)=NC1c1ccc(Cl)cc1,H37Rv,MIC,-,agar,-,4 µg/mL
Cn1nc(-c2ccc(S(=O)(=O)F)cc2)s/c1=N\NC(=O)c1ccccc1,H37Rv,inhibition,12.5 µg/mL,BACTEC,-,40%
O=C(CCc1ccccc1)Oc1ccc(/C=C2\CCCCC2=O)cc1,H37Rv,inhibition,12.5 µg/mL,-,-,0%
COC(=O)C1=C(C)NC(Nc2ccc(Br)cc2)=NC1c1ccc(Cl)cc1,H37Rv,MIC,-,agar,-,16 µg/mL
Cc1ccc2c(c1)c(N=NC(=S)Nc1ccccc1)c(O)n2C,H37Rv,EC90,-,broth dilution / resazurin,-,>100 µg/mL
COC(=O)C1=C(C)NC(=NCc2ccc(OC)cc2OC)NC1c1ccc(Cl)cc1,MDR-TB,MIC,-,agar,-,32 µg/mL
CC1(C)CN(CCO)C(C)(C)CN1CCO,H37Rv,inhibition,12.8 µg/mL,BACTEC,-,10%
CCc1cc(C(N)=S)ccn1,MC2 6230,MIC99,-,-,-,90.36 µM
CC(=O)Nc1ccc2[nH]c(C)cc(=O)c2c1,H37Rv,inhibition,12.5 µg/mL,BACTEC,-,-11%
CC(=O)Oc1cccc2c1C(=O)C=C(C)C2=O,H37Rv,MIC,-,resazurin,-,34.8 µM
Nc1ccc(S(=O)(=O)c2ccc(N)cc2)cc1,H37Rv,MBC,-,-,-,>160 µg/mL
[N-]=[N+]=NCCCCCN1C(=O)C(=O)c2cc(Cl)ccc21,MC2 6230,MIC99,-,-,-,171 µM
CCCC(=O)Oc1cccc2c1C(=O)C=C(C)C2=O,H37Rv,MIC,-,resazurin,-,77.4 µM
CCCCCCCCCCCCCC[C@H](O)C[C@H](O)C[C@H](O)C[C@H]1CC=CC(=O)O1,H37Rv,inhibition,128 µg/mL,fluorescence,VERO,82.9%
CSc1ccc(OC(=O)Nc2ccc(C)c([N+](=O)[O-])c2)cc1C,H37Rv,inhibition,12.5 µg/mL,BACTEC,-,10%
Cc1ccc(/C=C/C(=O)Oc2ccc(/C=C3\CCCC(CN(C)C)C3=O)cc2)cc1,H37Rv,EC50,-,-,-,<12.5 µg/mL
CCn1cc(C(=O)O)c(=O)c2cc(F)c(N3CCN(CN4C(=O)C(=O)c5cc(Br)ccc54)CC3)cc21,H37Rv,MIC,-,BACTEC,-,<12.5 µg/mL
[N-]=[N+]=NCCCCCN1C(=O)C2(OCCO2)c2cc(F)ccc21,MC2 6230,MIC99,-,-,-,>313 µM
O=C1CSC(c2ccccc2[N+](=O)[O-])N1NC1=Nc2ccccc2Sc2ccccc21,H37Rv,MIC,-,broth dilution,-,125 µg/mL
Cc1ncc(COP(=O)(O)O)c(C2NCCS2)c1O,H37Rv,inhibition,12.5 µg/mL,BACTEC,-,0%
CCCCCCCCCCCCCCC[C@H](O)CCC[C@H](O)C[C@H]1CC=CC(=O)O1,H37Rv,MIC,-,-,-,48.23 µg/mL
CO[C@H]1/C=C/O[C@@]2(C)Oc3c(C)c(O)c4c(O)c(c(/C=N/N5CCN(C)CC5)c(O)c4c3C2=O)NC(=O)/C(C)=C\C=C\[C@H](C)[C@H](O)[C@@H](C)[C@@H](O)[C@@H](C)[C@H](OC(C)=O)[C@@H]1C,H37RV 102,MIC,-,-,-,1 µg/mL
NC(=O)C[n+]1cccc(C(N)=O)c1.[Cl-],H37Rv,inhibition,12.5 µg/mL,BACTEC,-,0%
CCCCCCCCCCCCCCC[C@H](O)C[C@H]1CC=CC(=O)O1,H37Rv,inhibition,128 µg/mL,fluorescence,VERO,98.9%
Cc1ccc2c(c1)c(N=NC(=S)Nc1ccc(Cl)cc1)c(O)n2C,H37Rv,EC90,-,broth dilution / resazurin,-,>100 µg/mL
CSC(=S)N/N=C(\C)c1nccnc1C,H37Rv,MIC bound,-,BACTEC,-,≤128 µg/mL
COc1cc2ccc(=O)oc2c2ccoc12,H37Ra,MIC90,-,resazurin,-,400 µg/mL
CC(=O)Nc1ccc(/C=N/NC(N)=S)cc1,1620,MIC,-,-,-,0.3 µg/mL
O=C(NCCO)N/N=C(\CCN1CCCCC1)c1ccc([N+](=O)[O-])o1,H37Rv,inhibition,12.5 µg/mL,BACTEC,-,14%
CCn1cc(C(=O)O)c(=O)c2cc(F)c(N3CCNCC3)cc21,100 isolates,MIC50,-,-,-,16 µg/mL
CC[C@@H](C)N1CCN(c2cc(=O)c3nc4c(oc3c2)c2c(=O)c3c(O)c(C)c5c(c34)=C(O)[C@@](C)(O/C=C/[C@H](OC)[C@@H](C)[C@@H](OC(C)=O)[C@H](C)[C@H](O)[C@H](C)[C@@H](O)[C@@H](C)/C=C/C=C(/C)C(=O)N2)O5)CC1,16 strains (rifampicin-susceptible),MIC50,-,-,-,≤0.0125 µg/mL
CN(C)CCc1c2c(nc3ccccc13)C(=O)c1cccnc1C2=O,H37Rv,MIC,-,-,VERO,6.25 µg/mL
CCCCCCCCCCCCCCC[C@H]1CC=CC(=O)O1,H37Rv,MIC,-,-,-,>128 µg/mL
CCn1cc(C(=O)O)c(=O)c2cc(F)c(N3CCN(Cn4c(O)c(N=NC(N)=S)c5cc(Br)ccc54)CC3)cc21,H37Rv,EC50,-,BACTEC,-,<12.5 µg/mL
COC(=O)C1=C(C)NC(Nc2cccc(Br)c2)=NC1c1ccc(Cl)cc1,MDR-TB,MIC,-,agar,-,16 µg/mL
Nc1nc(Sc2ccc([N+](=O)[O-])c3nonc23)c2[nH]cnc2n1,H37Rv,MIC bound,-,resazurin,-,>6.25 µg/mL
CCn1cc(C(=O)O)c(=O)c2cc(F)c(N3CCN(Cn4c(O)c(N=NC(N)=O)c5cc(Cl)ccc54)CC3)cc21,H37Rv,inhibition,12.5 µg/mL,BACTEC,-,94%
CCN(CC)CCNc1ccc(CO)c2oc3cc(Cl)ccc3c(=O)c12,H37Rv,inhibition,12.5 µg/mL,BACTEC,-,13%
CCCCCCCCCCCCCCC[C@H](O)CC[C@@H](O)CCC[C@H]1CC=CC(=O)O1,H37Rv,inhibition,128 µg/mL,fluorescence,VERO,98.3%
Oc1[nH]c2ccc(OC(F)(F)F)cc2c1N=NC(=S)Nc1ccccc1,H37Rv,EC90,-,broth dilution / resazurin,-,>100 µg/mL
CCN(CC)CCCNc1ccc(C)c2sc3ccccc3c(=O)c12,H37Rv,MIC,-,BACTEC,-,3.13 µg/mL
CCCCCCCCCCCCCCC[C@H](O)CCCC[C@H]1CC=CC(=O)O1,H37Rv,inhibition,128 µg/mL,fluorescence,VERO,94.7%
O=C(O)COc1ccc(C2C(Oc3ccc([N+](=O)[O-])cc3)C(=O)N2c2ccc(Cl)c(F)c2)cc1,H37Rv,MIC90,-,resazurin,-,3.13 µg/mL
Nc1c(C(=O)Nc2ccccc2)[n+]([O-])c2ccccc2[n+]1[O-],H37Rv,inhibition,12.5 µg/mL,BACTEC,-,100%
CCNC(=S)N=Nc1c(O)[nH]c2ccc(OC(F)(F)F)cc12,H37Rv,EC50,-,broth dilution / resazurin,-,0.767 µg/mL
CC1=CC(=O)c2c(OC(=O)c3ccccc3)cccc2C1=O,H37Rv,MIC,-,resazurin,-,27.4 µM
CCCCCCCCCCCCCCC[C@H](O)C[C@H](O)CCC[C@H]1CC=CC(=O)O1,H37Rv,inhibition,128 µg/mL,fluorescence,VERO,95.8%
CC[C@H]1OC(=O)[C@H](C)[C@@H](O[C@H]2C[C@@](C)(OC)[C@@H](O)[C@H](C)O2)[C@H](C)[C@@H](O[C@@H]2O[C@H](C)C[C@H](N(C)C)[C@H]2O)[C@](C)(O)C[C@@H](C)/C(=N\OCOCCOC)[C@H](C)[C@@H](O)[C@]1(C)O,188 strains,MIC90,-,-,-,4 µg/mL
O=c1ccc2ccc3occc3c2o1,H37Ra,EC50,-,resazurin,-,65.1 µg/mL
COc1ccc(/C=C/C(=O)Oc2ccc(/C=C3\CCCCC3=O)cc2)cc1,H37Rv,inhibition,12.5 µg/mL,-,-,1%
COc1cc(C2SCC(=O)N2NC2=Nc3ccccc3Sc3ccccc32)cc(OC)c1OC,H37Rv,MIC,-,broth dilution,-,500 µg/mL
CCCCCCCCCCCCCCC[C@H]1CCCC(=O)O1,H37Rv,inhibition,128 µg/mL,fluorescence,-,53.6%
COc1c2ccoc2c(OC)c2oc(=O)ccc12,H37Ra,EC50,-,resazurin,-,>100 µg/mL
CNC1CCCN(c2c(F)cc3c(=O)c(C(=O)O)cn(C4CC4)c3c2OC)C1,100 isolates,MIC50,-,-,-,0.5 µg/mL
NC(=N\N=C\c1ccc(Cl)cc1Cl)/C(N)=N/N=C/c1ccc(Cl)cc1Cl,H37Rv,MIC,-,BACTEC,-,≥12.5 µg/mL
Cc1ccc2c(c1)C(=O)C(=O)N2CCCCCCCCN=[N+]=[N-],MC2 6230,MIC99,-,-,-,167 µM
COC(=O)C1=C(C)NC(Nc2ccc(F)c(Br)c2)=NC1c1ccc(Cl)cc1,XDR-TB,MIC,-,agar,-,>64 µg/mL
COc1cc2occc2c2oc(=O)ccc12,H37Ra,EC50,-,resazurin,-,74.6 µg/mL
Cc1ccc(OC2C(=O)N(c3ccc(Cl)c(F)c3)C2c2ccc(OCC(=O)O)cc2)cc1,H37Rv,MIC90,-,resazurin,-,>6.25 µg/mL
CCCC(=O)C(CC)C(=O)C(=O)Nc1nc([N+](=O)[O-])cs1,H37Rv,MIC bound,-,resazurin,-,>6.25 µg/mL
COc1ccc(C(=O)Oc2ccc(/C=C3\CCCCC3=O)cc2)cc1,H37Rv,inhibition,12.5 µg/mL,-,-,51%
CC[C@H](C)N1CCN(c2cc(=O)c3nc4c(oc3c2)c2c(=O)c3c(O)c(C)c5c(c34)=C(O)[C@@](C)(O/C=C/[C@H](OC)[C@@H](C)[C@@H](OC(C)=O)[C@H](C)[C@H](O)[C@H](C)[C@@H](O)[C@@H](C)/C=C/C=C(/C)C(=O)N2)O5)CC1,6 strains (rifampicin-resistant),MIC50,-,-,-,≤0.0125 µg/mL
O=C(O)c1ccc(NC(=S)S)cc1,H37Rv,inhibition,12.5 µg/mL,BACTEC,-,60%
O=C(/C=C/c1ccccc1)Oc1ccc(/C=C2\CCCCC2=O)cc1,H37Rv,EC50,-,-,-,>12.5 µg/mL
[N-]=[N+]=NCCCCCCCCN1C(=O)C(=O)c2ccccc21,MC2 6230,MIC99,-,-,-,175 µM
CN1CCN(CCCN2c3ccccc3Sc3ccc(C(F)(F)F)cc32)CC1,H37Rv,MBC,-,-,-,10–20 µg/mL
Oc1[nH]c2ccc(OC(F)(F)F)cc2c1N=NC(=S)Nc1ccc(Br)cc1,H37Rv,EC50,-,broth dilution / resazurin,-,1.341 µg/mL
O=C(O)COc1ccc(C2C(Oc3ccc(Cl)cc3)C(=O)N2c2ccc(Cl)c(F)c2)cc1,H37Rv,MIC90,-,resazurin,-,1.56 µg/mL
CO[C@@]12[C@H](COC(=O)NCCO)C3=C(C(=O)C(C)=C(N)C3=O)N1C[C@H]1[C@@H]2N1C,H37Rv,MIC,-,-,-,6.3 µg/mL
O=C1CSC(c2ccccc2Cl)N1NC1=Nc2ccccc2Sc2ccccc21,H37Rv,MIC,-,broth dilution,-,250 µg/mL
CCCCCCCC(=O)N/N=C(\CO)C1(O)Cc2c(O)c3c(c(O)c2C(OC2CC(N)C(O)C(C)O2)C1)C(=O)c1c(OC)cccc1C3=O,H37Rv,MIC bound,-,BACTEC,-,>12.5 µg/mL
Cc1ccc2[nH]c(O)c(N=NC(=S)Nc3ccc([N+](=O)[O-])cc3)c2c1,H37Rv,EC90,-,broth dilution / resazurin,-,>100 µg/mL
Cc1ccc(N2CCN(C(N)=S)CC2)cc1Cl,H37Rv,MIC bound,-,BACTEC,-,>12.5 µg/mL
O=C1[C@H](Cl)[C@@H](c2ccc(F)cc2)N1NC1=Nc2ccccc2Sc2ccccc21,H37Rv,MIC,-,broth dilution,-,1000 µg/mL

4 of the rows above, restated:

smiles	strain	endpoint	tested at	read by	cell line	result
COc1cc(C2SCC(=O)N2NC2=Nc3ccccc3Sc3ccccc32)cc(OC)c1OC	H37Rv	MIC	-	broth dilution	-	500 µg/mL
COC(=O)C1=C(C)NC(=NCc2ccc(OC)cc2OC)NC1c1ccc(Cl)cc1	MDR-TB	MIC	-	agar	-	32 µg/mL
Cc1ccc(/C=C/C(=O)Oc2ccc(/C=C3\CCCC(CN(C)C)C3=O)cc2)cc1	H37Rv	EC50	-	-	-	<12.5 µg/mL
CC[C@H](C)N1CCN(c2cc(=O)c3nc4c(oc3c2)c2c(=O)c3c(O)c(C)c5c(c34)=C(O)[C@@](C)(O/C=C/[C@H](OC)[C@@H](C)[C@@H](OC(C)=O)[C@H](C)[C@H](O)[C@H](C)[C@@H](O)[C@@H](C)/C=C/C=C(/C)C(=O)N2)O5)CC1	6 strains (rifampicin-resistant)	MIC50	-	-	-	≤0.0125 µg/mL

Neighbouring rows are from separate reports. MIC50, MIC90 and the like: level of inhibition, or share of isolates inhibited. MIC bound: limit read from a one-dose screen. Inhibition is in % at the dose shown (toxicity tests: loss of growth or viability). An empty or dashed field is not shown. Two numbers with a dash give a range or band.